A mixed list of measured activities; the numbers were collected in NIAID ChemDB.

Common to all: whole-cell or culture tests; agent: HIV-1; measure: EC50

ECn: concentration that inhibits the pathogen or its effect by n%. Neighbouring rows are from separate reports. An empty or dashed field is not shown.

smiles	cell line	changes	strain	method	result
Cc1cc(C#N)cc(C)c1Oc1nc(NC2CCC(NCc3ccc(F)cc3)CC2)nc2ccsc12	MT-4	NNRTI-resistant (RT Y181C)	IIIB	MTT	>2.77 µM
CSC(=Nc1ccc(Cl)cc1)Nn1c(C)nc2ccccc2c1=O	MT-4	-	IIIB	MTT	1.93 µg/mL
COc1cccc2c(-c3ccc(O)cc3O)cc(-c3cc(-c4ccc(O)cc4O)c4cccc(OC)c4c3O)c(O)c12	CEM + CEM-SS	-	RF	cytopathic effect	>100 µM
CCCCSc1ccc(-c2cnc(C)c([C@H](OC(C)(C)C)C(=O)O)c2N2CCC(C)(C)CC2)cn1	MT-2	-	NL4-3	luminescence	0.005 µM
COc1ccc(-c2c(C)nn3c(N4CC[C@@H](NC(C)=O)C4)nc(C)nc23)cc1OC	H9	-	-	p24	>100 µM
CSC(=Nc1ccccc1)Nn1c(C)nc2ccccc2c1=O	MT-4	-	IIIB	MTT	57.26 µg/mL
COc1ccc(-c2c(C)nc3c(N4CC[C@@H](NC(=O)Oc5ccc6ccccc6c5)C4)cc(C)nn23)cc1OC	H9	-	-	p24	0.3 µM
Cc1ncc(-c2cnc(OCCN3CCSCC3)c(F)c2)c(N2CCC(C)(C)CC2)c1[C@H](OC(C)(C)C)C(=O)O	MT-2	-	NL4-3	luminescence	0.0016 µM
COc1ccc(-c2c(C)nc3c(N4CC[C@@H](NC(=O)OC5CCCCC5)C4)cc(C)nn23)cc1OC	H9	-	-	p24	0.3 µM
Cc1ncc(-c2cnc(OCC3CC=CC3)c(F)c2)c(N2CCC(C)(C)CC2)c1[C@H](OC(C)(C)C)C(=O)O	MT-2	-	NL4-3	luminescence	0.0037 µM
Cc1cccnc1CN(CCCCN)Cc1nccc2cc(Br)ccc12	U87.CD4.CXCR4	-	-	entry / luminescence	0.69 µM
Cc1cc(C#N)cc(C)c1Oc1nc(NC2CCN(Cc3ccc(S(N)(=O)=O)cc3)CC2F)nc2ccsc12	MT-4	NNRTI-resistant (RT F227L V106A)	IIIB	MTT	0.00873 µM
COc1cc(OC)c2c(O)c(-c3cc(-c4ccccc4)c4cc(OC)cc(OC)c4c3O)cc(-c3ccccc3)c2c1	CEM + CEM-SS	-	RF	cytopathic effect	>100 µM
Cc1cccnc1CN(CCCCN)Cc1nccc2ccccc12	U87.CD4.CXCR4	-	-	entry / luminescence	0.93 µM
COc1cc(C)cc2c(-c3ccc4c(c3)OCO4)cc(-c3cc(-c4ccc5c(c4)OCO5)c4cc(C)cc(OC)c4c3O)c(O)c12	CEM + CEM-SS	-	RF	cytopathic effect	>100 µM
Cc1cc(/C=C/C#N)cc(C)c1Oc1nc(NC2CCN(Cc3ccc(F)cc3)CC2)nc2ccsc12	MT-4	NNRTI-resistant (RT Y181C)	IIIB	MTT	0.0272 µM
Cc1ncc(-c2ccc(OCCn3cccc3C)cn2)c(N2CCC(C)(C)CC2)c1[C@H](OC(C)(C)C)C(=O)O	MT-2	-	NL4-3	luminescence	0.0072 µM
COc1ccc(-c2cnc3c(N4CC[C@@H](NC(C)=O)C4)cc(C)nn23)cc1OC	H9	-	-	p24	0.9 µM
Cc1cccc(Nc2nn3c(=O)c4ccccc4nc3s2)c1	MT-4	-	IIIB	cytopathic effect / MTT	40.65 µg/mL
COc1cc(OC)c2c(O)c(-c3cc(-c4cccc(N)c4)c4cc(OC)cc(OC)c4c3O)cc(-c3cccc(N)c3)c2c1	CEM + CEM-SS	-	RF	cytopathic effect	>100 µM
Cc1ncc(-c2ccc(O[C@H](C)C3CC3)nc2)c(N2CCC(C)(C)CC2)c1[C@H](OC(C)(C)C)C(=O)O	MT-2	-	NL4-3	luminescence	0.0124 µM
COc1ccc(-c2c(C)nc3c(N4CC[C@@H](NS(=O)(=O)C(C)C)C4)cc(C)nn23)cc1OC	H9	-	-	p24	0.3 µM
O=c1c2ccccc2nc2sc(Nc3ccccc3)nn12	MT-4	-	IIIB	cytopathic effect / MTT	35.3 µg/mL
COc1cccc2c(-c3ccccc3)cc(-c3cc(-c4ccccc4)c4cccc(OC)c4c3O)c(O)c12	CEM + CEM-SS	-	RF	cytopathic effect	>100 µM
Cc1ccc(NC(=O)CN2CCN(Cc3nc(-c4ccc(F)cc4)no3)CC2)cc1	PBMC	-	-	RT activity	15.6 µM
Cc1cc(/C=C/C#N)cc(C)c1Oc1nc(NC2CCN(Cc3cccc(Cl)c3)CC2)nc2ccsc12	MT-4	NNRTI-resistant (RT Y188L)	IIIB	MTT	0.17 µM
Cc1ncc(-c2ccc(N(C)CCOc3ccccc3)nc2)c(N2CCC(C)(C)CC2)c1[C@H](OC(C)(C)C)C(=O)O	MT-2	-	NL4-3	luminescence	0.0016 µM
CSC(=Nc1ccc(F)cc1)Nn1c(C)nc2ccccc2c1=O	MT-4	-	IIIB	MTT	2.84 µg/mL
Cc1cc(/C=C/C#N)cc(C)c1Oc1nc(NC2CCN(Cc3cccc(C(N)=O)c3)CC2)nc2ccsc12	MT-4	NNRTI-resistant (RT E138K)	IIIB	MTT	0.00641 µM
COc1ccc(-c2csc3c(N4CC[C@@H](NC(C)=O)C4)nc(C)nc23)cc1OC	H9	-	-	p24	>100 µM
COc1cc(OC)c2c(O)c(-c3cc(-c4cccs4)c4cc(OC)cc(OC)c4c3O)cc(-c3cccs3)c2c1	CEM + CEM-SS	-	RF	cytopathic effect	>100 µM
Cc1cc(/C=C/C#N)cc(C)c1Oc1nc(NC2CCN(Cc3ccccc3C#N)CC2)nc2ccsc12	MT-4	-	RES056	MTT	0.319 µM
COc1ccc2c(CN(CCCCN)Cc3ncccc3C)nccc2c1	Jurkat cells	-	-	flow cytometry	0.89 µM

Again, the opening 4 rows:

smiles,cell line,changes,strain,method,result
Cc1cc(C#N)cc(C)c1Oc1nc(NC2CCC(NCc3ccc(F)cc3)CC2)nc2ccsc12,MT-4,NNRTI-resistant (RT Y181C),IIIB,MTT,>2.77 µM
CSC(=Nc1ccc(Cl)cc1)Nn1c(C)nc2ccccc2c1=O,MT-4,-,IIIB,MTT,1.93 µg/mL
COc1cccc2c(-c3ccc(O)cc3O)cc(-c3cc(-c4ccc(O)cc4O)c4cccc(OC)c4c3O)c(O)c12,CEM + CEM-SS,-,RF,cytopathic effect,>100 µM
CCCCSc1ccc(-c2cnc(C)c([C@H](OC(C)(C)C)C(=O)O)c2N2CCC(C)(C)CC2)cn1,MT-2,-,NL4-3,luminescence,0.005 µM